PubChem BioAssay AID504761 | Drosophila RNAi Screening Center – 2011
In all, the deposit lists about 22,000 reagents; shown is an unselected part of those with a known target gene and a result. Over the whole deposit, 116 (0.52%) were called active. 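Calls depend on retest data that are not deposited; infection was ranked per plate without normalising between plates; the unit of the infection score is not given.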 Entries without a mark were called inactive. Reagents against one gene are numbered here. Names joined by + are all predicted targets of the reagent. Further read-outs or replicates are left out here. Not given: the amount of reagent, the time to read-out.

- Screen: 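Fly genes whose silencing reduces dengue virus type 2 infection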 (primary screen)
- Cell system: D.Mel-2 cells from Drosophila
- Reagent: long dsRNA against Drosophila genes
- Conditions: infection with dengue virus type 2; dose and infection time not stated
- Read-out: 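Per well on two replicate plates, imaging gave the percent of cells positive for viral envelope protein, ranked by infection, and a nuclear count of cells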
- Scale: infection score: higher = more virus-infected cells
- Active means: 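Low infection ranks in the two replicates (chance level up to 0.065) followed by a retest with a 1.5-fold or larger significant decrease, p below 0.05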
- Meaning of the calls: active = confirmed: knock-down lowers infection; inactive = not picked or not confirmed

Gene	dsRNA no.	infection score, replicate 1	infection score, replicate 2
CG5274	1	11.5	30.3
Jon99Fii (Jonah 99Fii)	1	7.09	0.64
RpL7-like + CG34164	1	5.36	4.48
RpL7-like + CG34164	2	12.2	15.5
Cec2 (Cecropin 2)	1	22.1	22.2
Cec2 (Cecropin 2)	2	5.95	20.1
Mal-A5 (Maltase A5)	1	1.51	6.53
Mal-A5 (Maltase A5)	2	7.23	3.07
CG32582 (retired record)	1	3.96	12.9
CG30268	1	2.29	15.6
Rpn6 (Regulatory particle non-ATPase 6)	1	4.38	3.71
CG9016	1	1.03	3.07
CG9016	2	4.12	3.33
TTLL6B (Tubulin tyrosine ligase-like 6B)	1	7.14	4.06
TTLL6B (Tubulin tyrosine ligase-like 6B)	2	15.1	8.99

2 entries already listed, arranged by “infection score, replicate 2”, high to low:
Gene	dsRNA no.	infection score, replicate 1	infection score, replicate 2
TTLL6B (Tubulin tyrosine ligase-like 6B)	1	7.14	4.06
CG9016	2	4.12	3.33

The results go on:
Gene	dsRNA no.	infection score, replicate 1	infection score, replicate 2
CG18480	1	7.35	7.04
CG18480	2	5.86	11.9
CG10948	1	0.29 (active)	0.41
Krn (Keren)	1	1.92 (active)	0.8
mRpL17 (mitochondrial ribosomal protein L17)	1	4.32	7.28
CG12773	1	2.49	10.4
CG12773	2	2.34	3.48
GNBP2 (Gram-negative bacteria binding protein 2)	1	1.52	15.2
